In the experiment the test system is HIV-1 BaL strain (subtype B, R5). It counts as cell-based. As to conditions: for EC50: CEMx174 5.25 M7 cells, HIV-1 BaL (subtype B, R5), mean ± SD, triplicate.

Each structure is given as a SMILES string.

A word on the EC50: it is the concentration giving half of the maximal effect. Low readings indicate greater potency, high ones weaker potency. `CC[C@H](C)[C@H](NC(=O)[C@H](CO)NC(=O)[C@H](CCC(=O)O)NC(=O)[C@H](CCC(=O)O)NC(=O)[C@H](CCC(N)=O)NC(=O)[C@H](CCCCN)NC(=O)[C@H](CCCCN)NC(=O)[C@@H](NC(=O)[C@H](CCC(N)=O)NC(=O)[C@H](CCC(=O)O)NC(=O)[C@H](CCC(=O)O)NC(=O)[C@@H](NC(=O)[C@H](CCCCN)NC(=O)[C@H](CCCCN)NC(=O)[C@@H](NC(=O)[C@H](CC(C)C)NC(=O)[C@H](CCC(=O)O)NC(=O)[C@H](CCC(=O)O)NC(=O)[C@H](CO)NC(=O)[C@H](CCCCN)NC(=O)[C@H](CCCCN)NC(=O)[C@@H](NC(=O)[C@H](CC(C)C)NC(=O)[C@H](CCC(=O)O)NC(=O)[C@H](CCC(=O)O)NC(=O)[C@@H](NC(=O)[C@H](CCCCN)NC(=O)[C@H](CCCCN)NC(=O)[C@H](CC(=O)O)NC(=O)[C@H](Cc1c[nH]c2ccccc12)NC(=O)[C@H](CCC(=O)O)NC(=O)[C@H](CCC(=O)O)NC(=O)[C@H](Cc1c[nH]c2ccccc12)NC(=O)[C@@H](NC(=O)[C@H](CCSC)NC(C)=O)[C@@H](C)O)[C@@H](C)CC)[C@@H](C)CC)[C@@H](C)CC)[C@@H](C)CC)[C@@H](C)CC)C(=O)N[C@@H](CCCCN)C(=O)N[C@@H](CCCCN)C(=O)N[C@@H](CCCCNC(=O)CCOCCOCCOCCOCCOCCOCCOCCOCCOCCOCCOCCOCCOCCOCCOCCOCCOCCOCCOCCOCCOCCOCCOCCOCCNC(=O)COCC(=O)N1CCC(C(=O)N(CCCN2CCC(Cc3ccc(C(N)=O)cc3)CC2)c2ccc(C)c(Cl)c2)CC1)C(N)=O` [AP3P24W] gave an EC50 of 8.98 ± 0.91 nM.

`CC[C@H](C)[C@H](NC(=O)[C@H](CO)NC(=O)[C@H](CCC(=O)O)NC(=O)[C@H](CCC(=O)O)NC(=O)[C@H](CCC(N)=O)NC(=O)[C@H](CCCCN)NC(=O)[C@H](CCCCN)NC(=O)[C@@H](NC(=O)[C@H](CCC(N)=O)NC(=O)[C@H](CCC(=O)O)NC(=O)[C@H](CCC(=O)O)NC(=O)[C@@H](NC(=O)[C@H](CCCCN)NC(=O)[C@H](CCCCN)NC(=O)[C@@H](NC(=O)[C@H](CC(C)C)NC(=O)[C@H](CCC(=O)O)NC(=O)[C@H](CCC(=O)O)NC(=O)[C@H](CO)NC(=O)[C@H](CCCCN)NC(=O)[C@H](CCCCN)NC(=O)[C@@H](NC(=O)[C@H](CC(C)C)NC(=O)[C@H](CCC(=O)O)NC(=O)[C@H](CCC(=O)O)NC(=O)[C@@H](NC(=O)[C@H](CCCCN)NC(=O)[C@H](CCCCN)NC(=O)[C@H](CC(=O)O)NC(=O)[C@H](Cc1c[nH]c2ccccc12)NC(=O)[C@H](CCC(=O)O)NC(=O)[C@H](CCC(=O)O)NC(=O)[C@H](Cc1c[nH]c2ccccc12)NC(=O)[C@@H](NC(=O)[C@H](CCSC)NC(C)=O)[C@@H](C)O)[C@@H](C)CC)[C@@H](C)CC)[C@@H](C)CC)[C@@H](C)CC)[C@@H](C)CC)C(=O)N[C@@H](CCCCN)C(=O)N[C@@H](CCCCN)C(=O)N[C@@H](CCCCNC(=O)COCC(=O)N1CCC(C(=O)N(CCCN2CCC(Cc3ccc(C(N)=O)cc3)CC2)c2ccc(C)c(Cl)c2)CC1)C(N)=O` [AP3W]: under “HIV-1 Bal, EC50 ratio”, the “fold decrease in potency relative to the parent AP3” value came to 8.4 fold.

Regarding `CC[C@H](C)[C@H](NC(=O)[C@H](CO)NC(=O)[C@H](CCC(=O)O)NC(=O)[C@H](CCC(=O)O)NC(=O)[C@H](CCC(N)=O)NC(=O)[C@H](CCCCN)NC(=O)[C@H](CCCCN)NC(=O)[C@@H](NC(=O)[C@H](CCC(N)=O)NC(=O)[C@H](CCC(=O)O)NC(=O)[C@H](CCC(=O)O)NC(=O)[C@@H](NC(=O)[C@H](CCCCN)NC(=O)[C@H](CCCCN)NC(=O)[C@@H](NC(=O)[C@H](CC(C)C)NC(=O)[C@H](CCC(=O)O)NC(=O)[C@H](CCC(=O)O)NC(=O)[C@H](CO)NC(=O)[C@H](CCCCN)NC(=O)[C@H](CCCCN)NC(=O)[C@@H](NC(=O)[C@H](CC(C)C)NC(=O)[C@H](CCC(=O)O)NC(=O)[C@H](CCC(=O)O)NC(=O)[C@@H](NC(=O)[C@H](CCCCN)NC(=O)[C@H](CCCCN)NC(=O)[C@H](CC(=O)O)NC(=O)[C@H](Cc1c[nH]c2ccccc12)NC(=O)[C@H](CCC(=O)O)NC(=O)[C@H](CCC(=O)O)NC(=O)[C@H](Cc1c[nH]c2ccccc12)NC(=O)[C@@H](NC(=O)[C@H](CCSC)NC(C)=O)[C@@H](C)O)[C@@H](C)CC)[C@@H](C)CC)[C@@H](C)CC)[C@@H](C)CC)[C@@H](C)CC)C(=O)N[C@@H](CCCCN)C(=O)N[C@@H](CCCCN)C(N)=O` [AP3], the EC50 is 0.75 ± 0.22 nM.

For the origin of these results see PMC10223265 (Viruses, 2023).
